Results from ChEMBL document CHEMBL4017475, “Discovery of benzophosphadiazine drug candidate IDX375: A novel hepatitis C allosteric NS5B RdRp inhibitor” (2017).

Columns and labels:
[1] = Inhibition of Hepatitis C virus 1a NS5B RNA-dependent RNA polymerase by cell based assay
Hepatitis C virus [2] = assay: Antiviral activity against Hepatitis C virus by luciferase assay
[3] = Inhibition of Hepatitis C virus 1b NS5B RNA-dependent RNA polymerase by cell based assay
Hepatitis C virus [4] = assay: Antiviral activity against HCV-1 infected in human assessed as log reduction in HCV RNA levels at 200 mg, bid by RT-PCR method; details: strain genotype 1
Cynomolgus monkey [5] = assay: Clearance in cynomolgus monkey at 10 mg/kg, po; details: in vivo
Rattus norvegicus [6] = assay: Tmax in rat at 15 mg/kg, po; details: in vivo
Mus musculus [7] = assay: Half life in mouse at 15 mg/kg, po; details: in vivo
Rattus norvegicus [8] = assay: Cmax in rat at 15 mg/kg, po; details: in vivo
Mus musculus [9] = assay: Cmax in mouse at 15 mg/kg, po; details: in vivo
Cynomolgus monkey [10] = assay: Oral bioavailability in cynomolgus monkey at 10 mg/kg; details: in vivo
Rattus norvegicus [11] = assay: Half life in rat at 15 mg/kg, po; details: in vivo
Rattus norvegicus [12] = assay: Clearance in rat at 15 mg/kg, po; details: in vivo
Mus musculus [13] = assay: Tmax in mouse at 15 mg/kg, po; details: in vivo
Cynomolgus monkey [14] = assay: Tmax in cynomolgus monkey at 10 mg/kg, po; details: in vivo
Rattus norvegicus [15] = assay: Oral bioavailability in rat at 15 mg/kg; details: in vivo
Mus musculus [16] = assay: Clearance in mouse at 15 mg/kg, po; details: in vivo
Mus musculus [17] = assay: Oral bioavailability in mouse at 15 mg/kg; details: in vivo
Cynomolgus monkey [18] = assay: Half life in cynomolgus monkey at 10 mg/kg, po; details: in vivo
Cynomolgus monkey [19] = assay: Cmax in cynomolgus monkey at 10 mg/kg, po; details: in vivo

SMILES | IC50 [1] [nM] | EC50 (Hepatitis C virus [2]) [nM] | IC50 [3] [nM] | also measured
CCOP1(=O)N=C(C2=C(O)C(C(C)(C)C)N(Cc3ccc(F)cc3)C2=O)Nc2ccc(NS(C)(=O)=O)cc21 (stereo not given) | 31 | 44 | 15 | –
CCOP1(=O)N=C(C2=C(O)C(C(C)(C)C)N(CCC(C)(C)C)C2=O)Nc2ccc(N)cc21 (stereo not given) | 3730 | 3270 | 114 | –
CCOP1(=O)N=C(C2=C(O)C(C(C)(C)C)N(CCC(C)C)C2=O)Nc2ccc(NS(C)(=O)=O)cc21 (stereo not given) | 40 | 95 | 10 | –
CCOC(=O)CC1C(O)=C(C2=NP(=O)(OCC)c3cc(NS(C)(=O)=O)ccc3N2)C(=O)N1CCC(C)(C)C (stereo not given) | – | > 8300 | 915 | –
CCOP1(=O)N=C(C2=C(O)C(C(C)(C)C)N(CCC(C)(C)C)C2=O)Nc2ccc(OC)cc21 (stereo not given) | – | 6160 | 707 | –
CCOP1(=O)N=C(C2=C(O)C(Cc3c[nH]c4ccccc34)N(CCC(C)(C)C)C2=O)Nc2ccc(NS(C)(=O)=O)cc21 (stereo not given) | 1140 | > 8300 | 300 | –
CCOP1(=O)N=C(C2=C(O)C(C(C)(C)C)N(CCC(C)(C)C)C2=O)Nc2ccc(F)cc21 (stereo not given) | 3610 | 4800 | 116 | –
CCOP1(=O)N=C(C2=C(O)C(C)N(CCC(C)(C)C)C2=O)Nc2ccc(NS(C)(=O)=O)cc21 (stereo not given) | 961 | 6950 | 21 | –
CCOP1(=O)N=C(C2=C(O)C(Cc3cccs3)N(CCC(C)(C)C)C2=O)Nc2ccc(NS(C)(=O)=O)cc21 (stereo not given) | 972 | > 8300 | 200 | –
CCOP1(=O)N=C(C2=C(O)C(C(C)(C)C)N(Cc3ccc(F)c(C)c3)C2=O)Nc2ccc(NS(C)(=O)=O)cc21 (stereo not given) | 17 | 15 | 5 | –
CCOP1(=O)N=C(C2=C(O)C(C(C)(C)C)N(CCC(C)(C)C)C2=O)Nc2ccc(NS(C)(=O)=O)cc21 (stereo not given) | 59 | 9 | 12 | –
CCO[P@]1(=O)N=C(C2=C(O)[C@H](C(C)(C)C)N(CCC(C)(C)C)C2=O)Nc2ccc(NS(C)(=O)=O)cc21 | 15 | 3 | 5 | Activity (Hepatitis C virus [4]): <=2.7; clearance (Cynomolgus monkey [5]): 14 mL/min/kg; Tmax (Rattus norvegicus [6]): 4 h; t1/2 (Mus musculus [7]): 5.1 h; Cmax (Rattus norvegicus [8]): 2210 ng/mL; Cmax (Mus musculus [9]): 569 ng/mL; bioavailability (Cynomolgus monkey [10]): 28%; t1/2 (Rattus norvegicus [11]): 1.3 h; clearance (Rattus norvegicus [12]): 10.2 mL/min/kg; Tmax (Mus musculus [13]): 4 h; Tmax (Cynomolgus monkey [14]): 4 h; bioavailability (Rattus norvegicus [15]): 16%; clearance (Mus musculus [16]): 26.3 mL/min/kg; bioavailability (Mus musculus [17]): 35%; t1/2 (Cynomolgus monkey [18]): 5.5 h; Cmax (Cynomolgus monkey [19]): 2250 ng/mL
CCOP1(=O)N=C(C2=C(O)C(C(C)(C)C)N(CCC(C)(C)C)C2=O)Nc2ccccc21 (stereo not given) | 3530 | 3420 | 44 | –
CCOP1(=O)N=C(C2=C(O)C(CC(C)C)N(CCC(C)(C)C)C2=O)Nc2ccc(NS(C)(=O)=O)cc21 (stereo not given) | 247 | 842 | 12 | –
CCO[P@@]1(=O)N=C(C2=C(O)[C@H](C(C)(C)C)N(CCC(C)(C)C)C2=O)Nc2ccc(NS(C)(=O)=O)cc21 | 1760 | 1390 | 701 | –
CCOP1(=O)N=C(C2=C(O)C(C(C)C)N(CCC(C)(C)C)C2=O)Nc2ccc(NS(C)(=O)=O)cc21 (stereo not given) | 227 | 610 | 24 | –
CCOP1(=O)N=C(C2=C(O)C(C(C)(C)C)N(CCC(C)(C)C)C2=O)Nc2ccc(OCC(N)=O)cc21 (stereo not given) | 182 | 130 | 17 | –
CCOP1(=O)N=C(C2=C(O)C(C(C)(C)C)N(CCC(C)(C)C)C2=O)Nc2ccc(C(N)=O)cc21 (stereo not given) | 2950 | 7930 | 279 | –
CCOP1(=O)N=C(C2=C(O)C(C(C)(C)C)N(Cc3ccc(F)c(Cl)c3)C2=O)Nc2ccc(NS(C)(=O)=O)cc21 (stereo not given) | 28 | 31 | 6 | –
CCOP1(=O)N=C(C2=C(O)C(C(C)(C)C)N(CCC(C)(C)C)C2=O)Nc2ccc(N(C(C)=O)S(C)(=O)=O)cc21 (stereo not given) | 817 | 19 | 65 | –
CCOP1(=O)N=C(C2=C(O)C3(CC4CCC3C4)N(CCC(C)(C)C)C2=O)Nc2ccc(NS(C)(=O)=O)cc21 (stereo not given) | 186 | 185 | 6 | –
CCOP1(=O)N=C(C2=C(O)C(CCOCc3ccccc3)N(CCC(C)(C)C)C2=O)Nc2ccc(NS(C)(=O)=O)cc21 (stereo not given) | 4540 | > 8300 | 21 | –
CCOP1(=O)N=C(C2=C(O)C(CCO)N(CCC(C)(C)C)C2=O)Nc2ccc(NS(C)(=O)=O)cc21 (stereo not given) | 1310 | > 8300 | 55 | –
CCOP1(=O)N=C(C2=C(O)C(C(C)(C)C)N(CCC(C)(C)C)C2=O)Nc2ccc(C(F)(F)F)cc21 (stereo not given) | – | > 8300 | > 10000 | –
